Anti-infective test results gathered from many reports (values: NIAID ChemDB through PubChem).

Shared fields: whole-cell or culture tests; species: Mycobacterium tuberculosis

An empty or dashed field is not shown.

| compound | measure | strain | tested at | mutations | read by | result |
|---|---|---|---|---|---|---|
| CO[C@H]1/C=C/O[C@@]2(C)Oc3c(C)c(O)c4c(O)c(c(/C=N/N=C/N5CCCCCC5)c(O)c4c3C2=O)NC(=O)/C(C)=C\C=C\[C@H](C)[C@H](O)[C@@H](C)[C@@H](O)[C@@H](C)[C@H](OC(C)=O)[C@@H]1C | MIC | H37Rv |  |  |  | 0.04 µg/mL |
| c1ccc(-c2ccnc3c2ccc2c(-c4ccccc4)ccnc23)cc1 | inhibition | H37Rv | 12.5 µg/mL |  | BACTEC | 100% |
| CC[C@@H](CO)NCCN[C@@H](CC)CO | MIC90 | H37Rv ATTC 27294 |  |  | broth dilution / resazurin | 5.6 µM |
| C/C(=N/NC(=O)c1cccnc1)c1ccccc1 | MIC |  |  |  |  | 1 µg/mL |
| NNC(=O)c1ccncc1 | MIC | H37Rv |  | KatG S315R | visual reading / absorbance | 6.3 µM |
| O=C(N/N=C/c1ccccc1O)c1ccncc1 | MIC |  |  |  |  | 0.1 µg/mL |
| O=C1C(=O)N(CCCCBr)c2c1cccc2-c1ccccc1 | MIC | H37Ra |  |  |  | ≤20 µg/mL |
| NCCCNCc1ccc(Nc2nc(=O)n(CCCCN3CCC(N)CC3)cc2F)nc1 | EC50 | H37Rv |  |  | turbidity | <0.5 µM |
| O=C1NC(CCCl)C(=O)NC1CCCl | inhibition | H37Rv | 12.5 µg/mL |  | BACTEC | 6% |
| O=C1C(=O)N(CCN2CCN(Cc3ccccc3)CC2)c2c1cccc2C1CCCCC1 | MIC | H37Ra |  |  |  | ≤20 µg/mL |
| CCCCCCCCCCCCCCCC(=O)N(O)CCCC[C@H](NC(=O)C1COC(c2ccccc2O)=N1)C(=O)OC[C@H](NC(=O)OC(C)(C)C)C(=O)NC1CCCCN(O)C1=O | MIC | H37Rv |  |  |  | >12.5 µg/mL |
| CCO/N=C1\C(=O)N(CCOCCN2C(=O)/C(=N/OCC)c3ccccc32)c2ccccc21 | MIC | H37Rv |  |  | resazurin | >32 µg/mL |
| c1ccc2c(c1)ccc1c2nnc2nnnn21 | inhibition | H37Rv | 6.25 µg/mL |  | resazurin | 62% |
| CCOC(=O)CSc1nc(N)c2c3c(sc2n1)CC(C(C)(C)C)CC3 | MIC | H37Rv |  |  | MTT | 1 µM |
| Nc1nc(N)c2nc3c4ccccc4c4ccccc4c3nc2n1 | inhibition | H37Rv | 12.5 µg/mL |  | BACTEC | 95% |
| CC(=O)O[C@H]1C[C@@]2(C)[C@@H](C[C@@H](O)[C@H]3[C@@]4(C)CC[C@@H](O)[C@@H](C)[C@@H]4CC[C@@]32C)/C1=C(\CCC=C(C)C)C(=O)O | MIC50 | 64 strains |  |  |  | 8 µg/mL |
| O=C(N/N=C/c1ccc(O)cc1)c1ccncc1 | MIC |  |  |  |  | <0.1 µg/mL |
| CCN(/C=N/N=C/c1c2c(O)c3c(O)c(C)c4c(c3c1O)C(=O)[C@@](C)(O/C=C/[C@H](OC)[C@@H](C)[C@@H](OC(C)=O)[C@H](C)[C@H](O)[C@H](C)[C@@H](O)[C@@H](C)/C=C/C=C(/C)C(=O)N2)O4)CC | MIC | H37Rv |  |  |  | 0.02 µg/mL |
| CO/N=C1\C(=O)N(CCOCCN2C(=O)/C(=N/OC)c3ccccc32)c2ccccc21 | MIC | H37Rv |  |  | resazurin | >32 µg/mL |
| CC1COC2(CCN(c3nc(=O)c4cc(C(F)(F)F)cc([N+](=O)[O-])c4s3)CC2)O1 | MIC | NTB1 |  |  |  | 10 µg/mL |
| CCO/N=C1\C(=O)N(CCOCCN2C(=O)/C(=N/OCC)c3cc(Cl)ccc32)c2ccc(Cl)cc21 | MIC | H37Rv |  |  | resazurin | >32 µg/mL |
| FC(F)(F)c1cc(NCCN2CCCCC2)c2cccc(C(F)(F)F)c2n1 | MIC | H37Rv |  |  |  | <6.25 µg/mL |
| C/C=C/C/C=C/CCC(=O)[C@H]1O[C@H]1C(N)=O | MIC | H37Rv |  |  |  | 5 µg/mL |
| O=C(N/N=C(\c1nc2ccc([N+](=O)[O-])cc2[nH]c1=O)C(O)c1ccc([N+](=O)[O-])cc1)c1ccncc1 | MIC | H37Rv |  | KatG G385V | visual reading / absorbance | 50 µM |
| NC1CCN(CCCCn2ccc(Nc3cc(CO)ccn3)nc2=O)CC1 | EC50 | H37Rv |  |  | turbidity | 0.5–1 µM |
| CCN(CC)c1ccc2nc3c4ccccc4c(=N)cc-3oc2c1 | MIC | PAS-R |  |  |  | 1.6 µg/mL |
| CCN(CC)CC.Nc1ncnc2c1ncn2[C@@H]1OC(COS(=O)(=O)NC(=O)CCCCC2SCC3NC(=O)NC32)[C@@H](O)[C@H]1O | MIC | H37Rv |  |  | broth dilution | 1.56 µM |
| CC1(C)S[C@@H]2[C@H](NC(=O)Cc3ccccc3)C(=O)N2[C@H]1C(=O)O | MIC | H37Ra |  |  |  | 256 µg/mL |
| O=Nc1c(O)n(CCOCCn2c(O)c(N=O)c3ccccc32)c2ccccc12 | MIC | H37Rv |  |  | resazurin | >32 µg/mL |
| COC(=O)CCC(=O)CC(=O)C(=O)Nc1ccc(F)cc1 | inhibition | H37Rv | 6.25 µg/mL |  | resazurin | 23% |
| CCN(CCCCN1C(=O)C(=O)c2ccccc21)Cc1ccccc1 | MIC | H37Rv |  |  |  | ≤20 µg/mL |
| CC[C@@H](CO)NCCN[C@@H](CC)CO | MIC | 90-0201 (DRUG-SUS) |  |  |  | 1 µg/mL |
| CCCCN(C)CCNc1cc(C)nc(Nc2nc3ccc(Cl)cc3[nH]2)n1 | inhibition | H37Rv | 6.25 µg/mL |  | resazurin | 91% |
| CNn1cc(C(=O)O)c(=O)c2cc(F)c(N3CCN(C)CC3)cc21 | MIC50 | 64 strains |  |  |  | 2 µg/mL |
| CCCCCCCCCCCCCCCC(=O)N(O)CCCC[C@H](NC(=O)[C@@H]1COC(c2ccccc2O)=N1)C(=O)NC[C@H](NC(=O)OC(C)(C)C)C(=O)NC1CCCCN(O)C1=O | MIC | H37Rv |  |  |  | <0.2 µg/mL |
| C=C(C)C1CC=C(C)/C(=N/NC(=O)c2cccnc2)C1 | MIC |  |  | inhA 15C to T | visual reading / absorbance | 25 µM |
| CO[C@H]1/C=C/O[C@@]2(C)Oc3c(C)c(O)c4c(O)c(c(/C=N/N=C/N5CCCC5)c(O)c4c3C2=O)NC(=O)/C(C)=C\C=C\[C@H](C)[C@H](O)[C@@H](C)[C@@H](O)[C@@H](C)[C@H](OC(C)=O)[C@@H]1C | MIC | H37Rv |  |  |  | 0.01 µg/mL |
| O=S1(=O)OC(c2ccc(O)c(Cl)c2)(c2ccc(O)c(Cl)c2)c2ccccc21 | inhibition | H37Rv | 12.5 µg/mL |  | BACTEC | 3% |
| COc1ccc(OC)c(/C=C2N=C(/C=C/c3ccccc3OC)OC\2=O)c1 | MIC | H37Rv |  |  | MTT | 17.1 µM |
| O=C(NN1C(=O)CS(=O)(=O)C1c1ccc(C(F)(F)F)cc1)c1ccncc1 | MIC |  |  | inhA 15C to T | visual reading / absorbance | 12.5 µM |
| COC1=C(OC)C(=O)C(C/C=C(\C)CCCC(C)CCCC(C)CCCC(C)C)=C(C)C1=O | inhibition | H37Rv | 6.25 µg/mL |  | resazurin | 67% |
| CC1(N)CCN(CCCCn2ccc(Nc3ccc(CNCCCN)cn3)nc2=O)CC1 | EC50 | H37Rv |  |  | turbidity | 0.5–1 µM |
| FC(F)(F)c1cc(NCCCCCNc2cc(C(F)(F)F)nc3c(C(F)(F)F)cccc23)c2cccc(C(F)(F)F)c2n1 | inhibition | H37Rv | 6.25 µg/mL |  |  | 20% |
| CO[C@H]1/C=C/O[C@@]2(C)Oc3c(C)c(O)c4c(O)c(c(/C=N/N5CCN(C)CC5)c(O)c4c3C2=O)NC(=O)/C(C)=C\C=C\[C@H](C)[C@H](O)[C@@H](C)[C@@H](O)[C@@H](C)[C@H](OC(C)=O)[C@@H]1C | MIC | H37Rv |  |  |  | 0.4 µg/mL |
| CC1CN(c2cc3c(cc2F)c(=O)c(C(=O)O)cn3-c2ccc(F)cc2F)CCN1 | MIC50 | 64 strains |  |  |  | 1 µg/mL |
| [Cl][Ru][Cl].c1ccc(-c2ccccn2)nc1.c1ccc([PH+](CCCC[PH+](c2ccccc2)c2ccccc2)c2ccccc2)cc1 | MIC90 | H37Rv ATTC 27294 |  |  | broth dilution / resazurin | 5.1 µM |
| CC(=O)NNc1nc(C)c(C(=O)NNC(=O)C(=O)Nc2ccc(Cl)cc2Cl)s1 | MIC bound | H37Rv |  |  | BACTEC | >12.5 µg/mL |
| NCc1ccc(Nc2ccn(CCCCN3CCC(N)CC3)c(=O)n2)nc1 | EC50 | H37Rv |  |  | turbidity | ≥1 µM |
| Clc1ccc(CC(Cn2ccnc2)c2ccccc2Cl)cc1 | MIC bound | H37Rv |  |  | resazurin | <6.25 µg/mL |
| CN[C@@H]1[C@H](O[C@H]2[C@H](O[C@H]3[C@H](O)[C@@H](O)[C@H](N=C(N)N)[C@@H](O)[C@@H]3N=C(N)N)O[C@@H](C)[C@]2(O)C=O)O[C@@H](CO)[C@H](O)[C@H]1O | MIC | WC 64/02 |  |  |  | 0.625 µg/mL |
| O=C(O)c1ccc[nH]c1=O | MIC90 | H37Rv ATTC 27294 |  |  | broth dilution / resazurin | >359.4 µM |
| O=C1NN2CCN=C2c2ccncc21 | MIC | H37Rv |  |  | BACTEC | ≥12.5 µg/mL |
| C/C(CCC(=O)O)=N\NC(=O)c1ccncc1 | MIC |  |  |  |  | 10 µg/mL |
| CCCCC/C(CC1NC(=S)NC1=O)=N\NC(=O)c1ccncc1 | MIC | H37Rv |  | KatG *741R | visual reading / absorbance | 6.3 µM |
| N[C@@H](C(=O)N[C@@H]1C(=O)N2C(C(=O)O)=C(Cl)CS[C@H]12)c1ccccc1 | MIC | H37Ra |  |  |  | 256 µg/mL |
| COC(=O)c1cc2c(=O)n(C)c(=O)n(C)c2[nH]c1=O | inhibition | H37Rv | 6.25 µg/mL |  | resazurin | 17% |
| CCNCC1CCN(c2c(F)cc3c(=O)c(C(=O)O)cn(CC)c3c2F)C1 | MIC50 | 64 strains |  |  |  | 2 µg/mL |
| FC(F)(F)c1cc(NCCCCNc2cc(C(F)(F)F)nc3c(C(F)(F)F)cccc23)c2cccc(C(F)(F)F)c2n1 | MIC | H37Rv |  |  |  | >6.25 µg/mL |
| NCCCNC(=O)c1ccnc(Nc2ccn(CCCCN3CCC(N)CC3)c(=O)n2)c1 | EC50 | H37Rv |  |  | turbidity | <0.5 µM |
| Cc1cc(O)c2c(c1)C(=O)C=CC2=O | MIC | WH 51/02 |  |  |  | 0.5 µg/mL |
| FC(F)(F)c1cc(NCCN2CCOCC2)c2cccc(C(F)(F)F)c2n1 | MIC | H37Rv |  |  |  | >6.25 µg/mL |
| COc1ccc2cc1Oc1ccc(cc1)CCCOC(=O)CC2 | EC50 | H37Rv |  |  | resazurin | >100 µg/mL |
| CO[C@H]1/C=C/O[C@@]2(C)Oc3c(C)c(O)c4c(O)c(c(/C=N/N=C/N(C)C5CCCCC5)c(O)c4c3C2=O)NC(=O)/C(C)=C\C=C\[C@H](C)[C@H](O)[C@@H](C)[C@@H](O)[C@@H](C)[C@H](OC(C)=O)[C@@H]1C | MIC | H37Rv |  |  |  | 0.01 µg/mL |
| COc1ccc(/C(C)=N/NC(=O)c2ccncc2)c(OC)c1 | inhibition |  | 0.5 µM |  | BACTEC | 99% |
| COc1cccc(/C=N/NC(=O)c2cccnc2)c1O | MIC |  |  |  |  | <1 µg/mL |
| Cc1ccccc1N=Nc1c(S(=O)(=O)O)cc2cc(NC(=O)Nc3ccc4c(O)c(N=Nc5ccc6cc(S(=O)(=O)O)ccc6c5)c(S(=O)(=O)O)cc4c3)ccc2c1O | MIC bound | H37Rv |  |  | BACTEC | >12.5 µg/mL |
| O=C(O)/C=C/c1ccccc1 | MIC | 90-0216 (DRUG-SUS) |  |  |  | 200 µg/mL |
| CCOC(=O)Cn1nc(-c2ccc([N+](=O)[O-])o2)oc1=O | MIC bound | H37Rv |  |  | BACTEC | >12.5 µg/mL |
| COc1c(N2CCNC(C)C2)c(F)cc2c(=O)c(C(=O)O)cn(C3CC3)c12 | MIC90 | H37Rv ATTC 27294 |  |  | broth dilution / resazurin | 0.9 µM |
| Cc1ccc(Nc2cc(N)nc(N)n2)cc1Cl | MIC bound | H37Rv |  |  | BACTEC | ≤12.5 µg/mL |
| CCCCCCCCN1C(=O)C(=O)c2cccc(-c3ccccc3)c21 | MIC | H37Rv |  |  |  | ≤20 µg/mL |
| COc1ccc(Br)cc1/C=C1\N=C(C2CCCCC2)OC1=O | MIC | H37Rv |  |  | MTT | 68.6 µM |
| CC(CCN1CCN(CCC(C)CC(C)(C)C)C1=O)CC(C)(C)C | inhibition | H37Rv | 12.5 µg/mL |  | BACTEC | 100% |
| O=C1Cc2cc(C3CCCCC3)ccc2N1CCC1CCCCC1 | MIC | H37Rv |  |  |  | ≤20 µg/mL |
| O=c1oc2ccccc2cc1/C=N/N1C(=S)N(c2ccccc2)C(=Nc2ccccc2)C1=Nc1ccccc1 | MIC bound | H37Rv |  |  | BACTEC | >12.5 µg/mL |
| O=C1C(=O)N(CCCCBr)c2ccc(C3CCCCC3)cc21 | MIC | H37Ra |  |  |  | ≤20 µg/mL |
| Nc1nccnc1C(=O)O | MIC | H37Rv |  |  | BACTEC | ≥12.5 µg/mL |
| O=C1OC(c2ccccc2)=N/C1=C\C(Cl)=C\c1ccccc1 | MIC | H37Rv |  |  | MTT | 40.4 µM |

The first 6 rows once more:

{"compound": "CO[C@H]1/C=C/O[C@@]2(C)Oc3c(C)c(O)c4c(O)c(c(/C=N/N=C/N5CCCCCC5)c(O)c4c3C2=O)NC(=O)/C(C)=C\\C=C\\[C@H](C)[C@H](O)[C@@H](C)[C@@H](O)[C@@H](C)[C@H](OC(C)=O)[C@@H]1C", "measure": "MIC", "strain": "H37Rv", "result": "0.04 µg/mL"}
{"compound": "c1ccc(-c2ccnc3c2ccc2c(-c4ccccc4)ccnc23)cc1", "measure": "inhibition", "strain": "H37Rv", "tested at": "12.5 µg/mL", "read by": "BACTEC", "result": "100%"}
{"compound": "CC[C@@H](CO)NCCN[C@@H](CC)CO", "measure": "MIC90", "strain": "H37Rv ATTC 27294", "read by": "broth dilution / resazurin", "result": "5.6 µM"}
{"compound": "C/C(=N/NC(=O)c1cccnc1)c1ccccc1", "measure": "MIC", "result": "1 µg/mL"}
{"compound": "NNC(=O)c1ccncc1", "measure": "MIC", "strain": "H37Rv", "mutations": "KatG S315R", "read by": "visual reading / absorbance", "result": "6.3 µM"}
{"compound": "O=C(N/N=C/c1ccccc1O)c1ccncc1", "measure": "MIC", "result": "0.1 µg/mL"}

Two numbers with a dash give a range or band. MIC bound: limit read from a one-dose screen. ECn is the concentration giving n% inhibition of infection, replication or growth. Inhibition is in % at the dose shown (toxicity tests: loss of growth or viability). MIC50, MIC90 and the like: level of inhibition, or share of isolates inhibited. Neighbouring rows are from separate reports.